Compound potency records, mixed from different reports. Data source: NIAID ChemDB in PubChem.

Common to all: whole-cell or culture tests; species: Mycobacterium kansasii

Rows are shuffled and stem from different studies. A number after MIC or MFC names an inhibition level or a share of isolates. An empty or dashed field is not shown.

smiles | read by | strain | endpoint | setting | result
O=C(NNC(=O)c1ccncc1)Nc1ccc(F)c(Cl)c1 | broth dilution | My 6509/96 | MIC100 | 14 d | >125 µM
C[C@H](NC(=O)OCc1ccccc1)c1cnc(-c2ccccc2)[nH]1 |  | My 235/80 | MIC | 14 d | 250 µM
Cc1ccc2oc(=O)n(-c3ccccc3)c(=S)c2c1 |  | 6509/96 | MIC | 14 d | 2 µM
Nc1ccc(C(=O)O)c(O)c1 |  | 235/80 | MIC | 21 d | >1000 µM
N/C(=N\N=C\c1cc(Cl)ccc1O)SCc1ccc(F)cc1 | broth dilution | ATCC 12478 | MIC | 21 d | 32 µM
O=C(Oc1ccc(Cl)cc1C(=O)Nc1cccc(Cl)c1)c1ccccc1 | broth dilution | 6509/96 | MIC | 7 d | 4 µM
CC(C)[C@H](NC(=O)OCc1ccccc1)c1cnc(-c2ccccc2)[nH]1 |  | My 6509/96 | MIC | 21 d | 62.5 µM
O=C(Oc1ccc(Cl)cc1C(=O)Nc1cccc(C(F)(F)F)c1)c1cnccn1 |  | 6509/96 | MIC | 21 d | 8 µM
O=C(Nc1ccc(Cl)c(Cl)c1)c1ccc(Cl)cc1OS(=O)(=O)c1ccccc1 |  | 235/80 | MIC | 14 d | 8 µM
Cc1ccc(-n2c(=O)oc3ccc(Br)cc3c2=S)cc1 |  | My 235/80 | MIC | 14 d | 2 µM
CC(C)(C)c1ccc(NC(=O)NNC(=O)c2ccncc2)cc1 | broth dilution | My 6509/96 | MIC100 | 7 d | 32 µM
C[C@H](NC(=O)OCc1ccccc1)c1cnc(-c2ccc([N+](=O)[O-])cc2)[nH]1 |  | My 235/80 | MIC | 14 d | >125 µM
O=C(Oc1ccc(Cl)cc1C(=O)Nc1ccc(F)cc1)c1cnccn1 |  | 6509/96 | MIC | 14 d | 8 µM
O=C(Nc1ccc(F)cc1)c1ccc(Cl)cc1OS(=O)(=O)c1ccccc1 |  | 6509/96 | MIC | 14 d | 16 µM
N/C(=N\N=C\c1cc(Br)ccc1O)SCc1ccc(Br)cc1 | broth dilution | 6509/96 | MIC | 14 d | 32 µM
S=c1oc2ccc(Br)cc2c(=S)n1-c1ccccc1 |  | My 235/80 | MIC | 21 d | 2 µM
O=C(Oc1ccc(Br)cc1C(=O)Nc1ccc(C(F)(F)F)cc1)c1cnccn1 |  | 235/80 | MIC | 14 d | 2 µM
COc1cccc(CS/C(N)=N/N=C/c2cc(Cl)ccc2O)c1 | broth dilution | 6509/96 | MIC | 21 d | 62.5 µM
NNC(=O)c1ccncc1 |  | 235/80 | MIC | 21 d | >250 µM
O=C(Nc1cccc(Cl)c1)c1ccc(Cl)cc1OS(=O)(=O)c1ccccc1 |  | 6509/96 | MIC | 7 d | 125 µM
O=C(Oc1ccc(Cl)cc1C(=O)Nc1cccc(F)c1)c1cnccn1 |  | 235/80 | MIC | 7 d | 2 µM
CC[C@@H](C)[C@H](NC(=O)OCc1ccccc1)c1cnc(-c2ccc([N+](=O)[O-])cc2)[nH]1 |  | My 6509/96 | MIC | 21 d | 32 µM
O=C(Nc1cccc(C(F)(F)F)c1)c1ccc(Cl)cc1OS(=O)(=O)c1ccccc1 |  | 6509/96 | MIC | 14 d | 125 µM
N/C(=N\N=C\c1ccccc1O)SCc1ccc(Br)cc1 | broth dilution | ATCC 12478 | MIC | 21 d | 32 µM
O=C(Nc1ccc(F)cc1)c1cc(Cl)ccc1OS(=O)(=O)c1ccccc1 |  | 6509/96 | MIC | 21 d | 16 µM
CCC(C)c1ccc(-n2c(=S)oc3ccc(Br)cc3c2=S)cc1 | broth dilution | 6509/96 | MIC | 14 d | 4 µM
Cc1ccc2oc(=S)n(-c3ccccc3)c(=S)c2c1 |  | 6509/96 | MIC | 21 d | 4 µM
CC[C@@H](C)[C@H](NC(=O)OCc1ccccc1)c1cnc(-c2ccccc2)[nH]1 |  | My 6509/96 | MIC | 7 d | 32 µM
Cc1ccc2oc(=O)n(-c3ccc(Br)cc3)c(=S)c2c1 |  | My 235/80 | MIC | 21 d | 4 µM
C[C@@H](NC(=O)OCc1ccccc1)c1cnc(-c2ccc([N+](=O)[O-])cc2)[nH]1 |  | My 235/80 | MIC | 21 d | >125 µM
O=C(Oc1cc(Cl)ccc1C(=O)Nc1ccc(Br)cc1)c1ccccc1 | broth dilution | 235/80 | MIC | 7 d | 2 µM
NC(=O)c1cnccn1 |  | 235/80 | MIC | 21 d | >1000 µM
CC(C)c1ccc(NC(=O)NNC(=O)c2ccncc2)cc1 | broth dilution | My 6509/96 | MIC100 | 7 d | 8 µM
Cc1ccc2c(=S)n(-c3ccc(C(C)C)cc3)c(=S)oc2c1 | broth dilution | 6509/96 | MIC | 21 d | 2 µM
O=C(Nc1ccc(Cl)c(Cl)c1)c1cc(Cl)ccc1OS(=O)(=O)c1ccccc1 |  | 235/80 | MIC | 7 d | 4 µM
O=C(Oc1cc(Cl)ccc1C(=O)Nc1ccc(Br)cc1)c1cnccn1 |  | 6509/96 | MIC | 14 d | 2 µM
O=C(Nc1ccc(Cl)cc1)c1cc(Cl)ccc1OS(=O)(=O)c1ccccc1 |  | 235/80 | MIC | 21 d | 8 µM
N/C(=N\N=C\c1cc(Br)ccc1O)SCc1ccc(F)cc1 | broth dilution | ATCC 12478 | MIC | 21 d | 32 µM
O=C(Oc1cc(Cl)ccc1C(=O)Nc1ccc(F)cc1)c1ccccc1 | broth dilution | 235/80 | MIC | 7 d | 2 µM
Cc1ccc(CS/C(N)=N/N=C/c2ccccc2)cc1 | broth dilution | 6509/96 | MIC | 21 d | 62.5 µM
Cc1ccc(NC(=O)NNC(=O)c2ccncc2)cc1 | broth dilution | My 235/80 | MIC100 | 7 d | 62.5 µM
O=C(Oc1cc(Cl)ccc1C(=O)Nc1cccc(Br)c1)c1ccccc1 | broth dilution | 235/80 | MIC | 14 d | 4 µM

2 of the rows above, restated:

{"smiles": "O=C(Nc1ccc(F)cc1)c1cc(Cl)ccc1OS(=O)(=O)c1ccccc1", "strain": "6509/96", "endpoint": "MIC", "setting": "21 d", "result": "16 µM"}
{"smiles": "N/C(=N\\N=C\\c1ccccc1O)SCc1ccc(Br)cc1", "read by": "broth dilution", "strain": "ATCC 12478", "endpoint": "MIC", "setting": "21 d", "result": "32 µM"}